Measured values from several laboratories, pooled; numbers as filed in NIAID ChemDB.

Common to all: whole-cell or culture tests

ECn is the concentration giving n% inhibition of infection, replication or growth. Zone: diameter of growth inhibition. A number after MIC or MFC names an inhibition level or a share of isolates. Lines come from different laboratories, so protocols vary. Inhibition is in % at the dose shown (toxicity tests: loss of growth or viability). Blank or dashed fields: not listed here.

compound,dose,setting,mutations,agent,measure,strain,method,result
O=C(O)c1cn(C2CC2)c2c(F)c(N3CCNCC3)c(F)cc2c1=O,,,,Mycobacterium fortuitum,MIC,ATCC 6841,,0.06 µg/mL
COc1cc(O)cc(/C=C/c2cc3ccccc3s2)c1,,,,Mycobacterium chelonae,MIC,,broth dilution,32 µg/mL
CCn1cc(C(=O)O)c(=O)c2cc(F)c(N3CCNC(C)C3)nc21,,,,Mycobacterium fortuitum,MIC,ATCC 6841,,0.25 µg/mL
O=C(O)c1cn(-c2ccc(F)cc2F)c2c(F)c(N3CCNCC3)c(F)cc2c1=O,,,,Mycobacterium avium complex,MIC50,14 strains,,16 µg/mL
CCN(CC)c1nc2c(s1)c1c(O)c3c(O)c(C)c4c(c32)C(=O)[C@@](C)(O/C=C/[C@H](OC)[C@@H](C)[C@@H](OC(C)=O)[C@H](C)[C@H](O)[C@H](C)[C@@H](O)[C@@H](C)/C=C/C=C(/C)C(=O)N1)O4,,,,Mycobacterium avium,MBC,211-5,,16 µg/mL
CCNCC1CCN(c2c(F)cc3c(=O)c(C(=O)O)c4n(c3c2F)CCS4)C1,,,,Mycobacterium avium complex,MIC50,14 strains,,≥32 µg/mL
O=C(N[C@@H]([C@H](O)CNCc1cccc(I)c1)C(F)(F)c1ccccc1)OCc1ccccc1,,,,Mycobacterium kansasii,MIC,P,broth dilution,64 µg/mL
O=Cc1cccc2ccccc12,,,,Mycobacterium fortuitum,EC50,,,>1000 µM
CC1CN(c2nc3c(cc2F)c(=O)c(C(=O)O)cn3C(C)(C)C)CCN1,,,,Mycobacterium fortuitum,MIC,ATCC 6841,,0.03 µg/mL
O=C(O)c1cn(C2CC2)c2cc(N3CCNCC3)c(F)cc2c1=O,,,,Mycobacterium luteus,MIC,,agar diffusion,>100 µg/mL
CC1CN(c2nc3c(cc2F)c(=O)c(C(=O)O)cn3-c2ccc(F)cc2F)CC(C)N1,,,,Mycobacterium fortuitum,MIC,ATCC 6841,,0.25 µg/mL
CCC1CN(c2nc3c(cc2F)c(=O)c(C(=O)O)cn3C(C)(C)C)CCN1,,,,Mycobacterium avium complex,MIC90,14 strains,,4 µg/mL
C/C=C(C)\C=C(/C)[C@@H](O)[C@H](C)[C@@H](O)[C@@H]1OC(=O)/C(CCCCCC)=C/c2csc(n2)[C@H](C)[C@@H](O)C[C@H](O)/C=C/C=C\C[C@@H]1O,,,,Mycobacterium luteus,MIC,,visual reading,32 µg/mL
CC(C)(C)c1ccc(/C=N/N=C(\N)c2ccccn2)cc1,,,,Mycobacterium fortuitum,EC50,,,>100 µM
CO[C@H]1/C=C/O[C@@]2(C)Oc3c(C)c(O)c4c(O)c(c(/C=N/N5CCN(C)CC5)c(O)c4c3C2=O)NC(=O)/C(C)=C\C=C\[C@H](C)[C@H](O)[C@@H](C)[C@@H](O)[C@@H](C)[C@H](OC(C)=O)[C@@H]1C,,,,Mycobacterium avium intracellulare,MIC50,20 strains,,3.13 µg/mL
CC1CN(c2cc3c(cc2F)c(=O)c(C(=O)O)cn3-c2ccc(F)cc2F)CC(C)N1,,,,Mycobacterium avium complex,MIC50,14 strains,,2 µg/mL
CCCNC(=O)Nc1ccc(S(=O)(=O)Nc2cc(C)on2)cc1,,21 d,,Mycobacterium kansasii,MIC100,6509/96 clinical isolate,broth dilution / absorbance,500 µM
COc1cc(Cc2cnc(N)nc2N)cc(OC)c1OCCCNc1ccc(S(=O)(=O)c2ccc(N)cc2)cc1,,,,Mycobacterium ulcerans,MBC,ATCC 19423,,4 µg/mL
CO[C@H]1/C=C/O[C@@]2(C)Oc3c(C)c(O)c4c(O)c(c(/C=N/N5CCN(C)CC5)c(O)c4c3C2=O)NC(=O)/C(C)=C\C=C\[C@H](C)[C@H](O)[C@@H](C)[C@@H](O)[C@@H](C)[C@H](OC(C)=O)[C@@H]1C,,,,Mycobacterium luteus,MIC,,visual reading,0.01 µg/mL
CO[C@@H]1C[C@@H](C[C@H]2CC[C@H](C)[C@H]([C@@H](C)C(=O)O)O2)O[C@]2(O[C@](C)([C@H]3CC[C@@](C)([C@@H]4O[C@@H]([C@H]5O[C@@](O)(CO)[C@H](C)C[C@@H]5C)C[C@@H]4C)O3)C[C@H]2C)[C@@H]1C,,,C410 deletion,Mycobacterium aurum,MIC,,resazurin,0.32 µg/mL
COc1ccc(C2CC(c3ccc4c(c3)OCO4)=Nc3c(N)nc(SC)nc3N2)cc1,,clinical isolate,,Mycobacterium szulgai,MIC,MNT1100,MTT / broth dilution / absorbance,>32 µg/mL
CCn1cc(C(=O)O)c(=O)c2cc(F)c(N3CCC(CNC)C3)nc21,,,,Mycobacterium fortuitum,MIC,ATCC 6841,,0.25 µg/mL
C/C=C(C)/C=C(\C)[C@@H](O)[C@H](C)[C@@H](O)[C@@H]1OC(=O)/C(CCCCCC)=C/c2csc(n2)[C@H](C)[C@@H](O)C[C@H](O)/C=C/C=C\C[C@@H]1O,,,,Mycobacterium luteus,MIC,,visual reading,32 µg/mL
NNC(=O)c1ccncc1,,,,Mycobacterium marinum,MIC100,CAMP 5644,broth dilution,467 µM
C[n+]1cc2c3c(ccc2c2ccc4cc5c(cc4c21)OCO5)OCO3,,,,Mycobacterium aurum,MIC50,,,9.61 µg/mL
COc1cc(Cc2cnc(N)nc2N)cc(OC)c1OC,,,,Mycobacterium ulcerans,MBC,Isolate 8756,,>32 µg/mL
CC(=O)N1C(=O)C2(C3=C(CN2C)C(=O)c2ccccc2C3=O)c2ccccc21,,,,Mycobacterium luteus,MIC,,agar diffusion,15.62 µg/mL
Nc1nc(N)c2c(n1)NC(c1ccc(F)cc1)CC(c1ccc3c(c1)OCO3)=N2,,clinical isolate,,Mycobacterium szulgai,MIC,MNT1100,MTT / broth dilution / absorbance,32 µg/mL
CCN1CCN(c2c(F)cc3c(=O)c(C(=O)O)cn(C4CC4)c3c2OC)CC1,,,,Mycobacterium avium complex,MIC50,14 strains,,0.5 µg/mL
Cc1ccc2c(c1)C1(C(=O)N2)C2=C(CN1C)C(=O)c1ccccc1C2=O,,,,Mycobacterium luteus,MIC,,agar diffusion,62.5 µg/mL
CC[C@@H](CO)NCCN[C@@H](CC)CO,,,,Mycobacterium avium complex,MIC,242-5,,1.9 µg/mL
Cc1cc(-c2cc3c(cc2F)c(=O)c(C(=O)O)cn3C2CC2)cc(C)n1,,,,Mycobacterium avium,MBC,3337,,8 µg/mL
CO[C@H]1/C=C/O[C@@]2(C)Oc3c(C)c(O)c4c(O)c(c5c(c4c3C2=O)NC2(CCN(CC(C)C)CC2)N=5)=NC(=O)/C(C)=C\C=C\[C@H](C)[C@H](O)[C@@H](C)[C@@H](O)[C@@H](C)[C@H](OC(C)=O)[C@@H]1C,,,,Mycobacterium avium paratuberculosis,MIC,K-10(PYUB180),,0.5 µg/mL
NCC[C@H](O)C(=O)N[C@@H]1C[C@H](N)[C@@H](O[C@H]2O[C@H](CN)[C@@H](O)[C@H](O)[C@H]2O)[C@H](O)[C@H]1O[C@H]1O[C@H](CO)[C@@H](O)[C@H](N)[C@H]1O,,,,Mycobacterium smegmatis,MIC,A28315,,0.25 µg/mL
CCC(C)(C)c1ccc(C=O)cc1,1000 µM,,,Mycobacterium fortuitum,inhibition,,,8%
CC[C@H]1OC(=O)[C@H](C)[C@@H](O[C@H]2C[C@@](C)(OC)[C@@H](O)[C@H](C)O2)[C@H](C)[C@@H](O[C@@H]2O[C@H](C)C[C@H](N(C)C)[C@H]2O)[C@](C)(OC)C[C@@H](C)C(=O)[C@H](C)[C@@H](O)[C@]1(C)O,,,,Mycobacterium marinum,MIC90,37 clinical isolates,,1.5 µg/mL
CC(C)(C)[C@@H](C(=O)N[C@@H](CCCCN)C(=O)O)N1NC(=O)C[C@H](NC(=O)[C@@H](N=C(N)N)c2cc(O)c(CO)c(O)c2)C1=O,,,,Mycobacterium szulgai,MIC,mc2155,visual reading,120 µg/mL
CCOc1c(N2CCC(CNC)C2)c(F)cc2c(=O)c(C(=O)O)cn(C3CC3)c12,,,,Mycobacterium fortuitum,MIC,ATCC 6841,,0.13 µg/mL
CC[C@@H](CO)NCCN[C@@H](CC)CO,,,,Mycobacterium avium complex,MBC,9141,,60 µg/mL
O=C(N[C@H]([C@H](O)CNCc1cccc(I)c1)C(F)(F)c1ccccc1)OCc1ccccc1,50 µg/disc,,,Mycobacterium marinum,zone,LCA-13,agar diffusion,8 mm
NC[C@H]1O[C@H](O[C@H]2[C@H](O)[C@@H](O[C@H]3O[C@H](CO)[C@@H](O)[C@H](N)[C@H]3O)[C@H](N)C[C@@H]2N)[C@H](O)[C@@H](O)[C@@H]1O,,,,Mycobacterium phlei,MIC,,,2 µg/mL
CCCN(CCC)C(=O)c1cc(C)cc(C(=O)N[C@@H](Cc2cc(F)cc(F)c2)[C@H](O)CNCc2cccc(I)c2)c1,100 µg/disc,,,Mycobacterium kansasii,zone,ATCC 35775,agar diffusion,17 mm
CO[C@H]1/C=C/O[C@@]2(C)Oc3c(C)c(O)c4c(=O)c(c5oc6cc(N7CCN(CC(C)C)CC7)cc(=O)c6nc5c4c3=C2O)NC(=O)/C(C)=C\C=C\[C@H](C)[C@H](O)[C@@H](C)[C@@H](O)[C@@H](C)[C@H](OC(C)=O)[C@@H]1C,,,,Mycobacterium avium,MBC,453,,0.125 µg/mL
Nc1ccc(C(=O)O)c(O)c1,,,,Mycobacterium avium complex,EC50,97 strains,agar,>5 µg/mL
CN1CC2=C(C(=O)c3ccccc3C2=O)C12C(=O)Nc1ccc(Br)cc12,50 µg/mL,,,Mycobacterium luteus,zone,,agar diffusion,17 mm
COc1nc2ccc(Br)cc2cc1[C@@H](c1ccccc1)[C@@](O)(CCN(C)C)c1cccc2ccccc12,,,C330 deletion,Mycobacterium aurum,MIC,,resazurin,0.04 µg/mL
CC[C@@H](CO)NCCN[C@@H](CC)CO,,,,Mycobacterium avium paratuberculosis,MIC,K-10(PYUB180),,20 µg/mL
CC[C@H]1OC(=O)[C@H](C)[C@@H](O[C@H]2C[C@@](C)(OC)[C@@H](O)[C@H](C)O2)[C@H](C)[C@@H](O[C@@H]2O[C@H](C)C[C@H](N(C)C)[C@H]2O)[C@](C)(OC)C[C@@H](C)C(=O)[C@H](C)[C@@H](O)[C@]1(C)O,,pH 7.4,,Mycobacterium avium,MIC,1854,broth dilution / radiometric,0.5 µg/mL
CN1C(=O)C2(C3=C(CN2C)C(=O)c2ccccc2C3=O)c2ccccc21,,,,Mycobacterium luteus,MIC,,agar diffusion,125 µg/mL
COc1c(N2CCNC(C)C2)c(F)cc2c(=O)c(C(=O)O)cn(C3CC3)c12,,,,Mycobacterium marinum,MIC90,37 clinical isolates,,0.38 µg/mL
COC[C@H]1OC(=O)c2coc3c2[C@@]1(C)C1=C(C3=O)C2CCC(=O)[C@@]2(C)C[C@H]1OC(C)=O,0.5 µM,,,Mycobacterium bovis,inhibition,BCG,,0%
NNC(=O)c1ccncc1,,,,Mycobacterium avium paratuberculosis,MIC,K-10(PYUB180),,≥250 µg/mL
CO[C@H]1/C=C/O[C@@]2(C)Oc3c(C)c(O)c4c(=O)c(c5oc6cc(N7CCN(CC(C)C)CC7)cc(=O)c6nc5c4c3=C2O)NC(=O)/C(C)=C\C=C\[C@H](C)[C@H](O)[C@@H](C)[C@@H](O)[C@@H](C)[C@H](OC(C)=O)[C@@H]1C,,,,Mycobacterium avium intracellulare,MIC50,20 strains,,≤0.05 µg/mL
C#CCN1C(=O)C2(C3=C(CN2C)C(=O)c2ccccc2C3=O)c2ccccc21,50 µg/mL,,,Mycobacterium luteus,zone,,agar diffusion,12 mm
N/N=C(\N)c1ccccn1,1000 µM,,,Mycobacterium fortuitum,inhibition,,,7.7%
NC1CCN(c2c(F)cc3c(=O)c(C(=O)O)cn(C4CC4)c3c2Cl)C1,,,,Mycobacterium fortuitum,MIC,ATCC 6841,,≤0.03 µg/mL
CC[C@@H](CO)NCCN[C@@H](CC)CO,100 µg/disc,,,Mycobacterium kansasii,zone,ATCC 35775,agar diffusion,50 mm
Nc1nc(N)c2c(n1)NC(c1ccc(Cl)cc1)CC(c1ccc3c(c1)OCO3)=N2,,clinical isolate,,Mycobacterium chelonae,MIC,MNT1407,MTT / broth dilution / absorbance,32 µg/mL

Repeating the final 4 entries:

compound,dose,setting,mutations,agent,measure,strain,method,result
N/N=C(\N)c1ccccn1,1000 µM,,,Mycobacterium fortuitum,inhibition,,,7.7%
NC1CCN(c2c(F)cc3c(=O)c(C(=O)O)cn(C4CC4)c3c2Cl)C1,,,,Mycobacterium fortuitum,MIC,ATCC 6841,,≤0.03 µg/mL
CC[C@@H](CO)NCCN[C@@H](CC)CO,100 µg/disc,,,Mycobacterium kansasii,zone,ATCC 35775,agar diffusion,50 mm
Nc1nc(N)c2c(n1)NC(c1ccc(Cl)cc1)CC(c1ccc3c(c1)OCO3)=N2,,clinical isolate,,Mycobacterium chelonae,MIC,MNT1407,MTT / broth dilution / absorbance,32 µg/mL